Measurements: paper PMC8556396, “Statin-mediated disruption of Rho GTPase prenylation and activity inhibits respiratory syncytial virus infection” (Communications Biology, 2021)

System: RSV-GFP
Test: RSV-GFP infection of HEp-2 cells, automated imaging, dose-response
Type: cell-based, Respiratory syncytial virus
Details: dose-response fit, HEp-2, RSV-GFP MOI 0.5
Procedure: HEp-2 cells were seeded to black, flat, microclear-bottom 96-well plates (655096, Greiner Bio-One) at a density of 5000 cells per well and incubated at 37 °C/5% CO2 overnight. The following morning, cells were washed twice with serum-free EMEM and treated with RSV-GFP (MOI 0.5) in a minimal volume of serum-free media for 90 min under frequent agitation. Unbound virus was then removed and replaced with fresh serum-containing EMEM. All drug additions were performed 2 h post-viral exposure, unless otherwise stated. Nuclei were stained with Hoechst 33342 (H3570, Thermo Fisher Scientific) (at a final concentration of 1 µg/mL) 48 h p.i. and imaging was performed using the Cellomics ArrayScan VTI HCS Reader at ×10 magnification (SPARC BioCentre, The Hospital for Sick Children, Toronto, ON).
Automated quantification of infection rates from fluorescent images were performed in CellProfiler (v2.2.0)[86]. Major steps in the image analysis pipeline included: (1) background subtraction and smoothing, (2) segmentation of nuclei, (3) segmentation of GFP-fluorescent area, (4) object masking, and (5) measurement of nuclear number, size, and intensity. Infection rate was quantified from the ratio of nuclei within GFP-fluorescent area to the total number of nuclei (Fig. 1b). This method of analysis accounts for in vitro syncytium formation induced by RSV, whereby a single infected cell may arise from the fusion of multiple cells. Mean nuclear fluorescent intensity and size was quantified as a measure of cell viability. […]

SMILES	HillSlope
O=c1cc(-c2ccccc2)oc2ccc(O)cc12 [6-Hydroxyflavone]	1.874
CC(C)c1c(C(=O)Nc2ccccc2)c(-c2ccccc2)c(-c2ccc(F)cc2)n1CC[C@@H](O)C[C@@H](O)CC(=O)O [Atorvastatin, Atorvastatin calcium salt trihydrate]	2.112
C[C@H]1O[C@@H](O[C@H]2[C@@H](O)C[C@H](O[C@H]3[C@@H](O)C[C@H](O[C@H]4CC[C@@]5(C)[C@H](CC[C@@H]6[C@@H]5CC[C@]5(C)[C@@H](C7=CC(=O)OC7)CC[C@]65O)C4)O[C@@H]3C)O[C@@H]2C)C[C@H](O)[C@@H]1O [Digitoxin]	1.229
C[C@H]1O[C@@H](O[C@H]2[C@@H](O)C[C@H](O[C@H]3[C@@H](O)C[C@H](O[C@H]4CC[C@@]5(C)[C@H](CC[C@@H]6[C@@H]5C[C@@H](O)[C@]5(C)[C@@H](C7=CC(=O)OC7)CC[C@]65O)C4)O[C@@H]3C)O[C@@H]2C)C[C@H](O)[C@@H]1O [Digoxin]	1.404
C[C@]12CC[C@@H]3c4ccc(O)cc4CC[C@H]3[C@@H]1CC[C@@H]2O [Estradiol, 17β-Estradiol]	3.809
O=C(Nc1ccc([N+](=O)[O-])cc1Cl)c1cc(Cl)ccc1O [Niclosamide]	8.875
C#C[C@]1(O)CC[C@H]2[C@@H]3CCC4=CC(=O)CC[C@@H]4[C@H]3CC[C@@]21C [Norethindrone, 19-Norethindrone]	1.817
CCC(C)(C)C(=O)O[C@H]1C[C@@H](C)C=C2C=C[C@H](C)[C@H](CC[C@@H]3C[C@@H](O)CC(=O)O3)[C@H]21 [Simvastatin, simvastatin]	2.704
CC(C)[C@@H]1NC(=O)[C@H](C)OC(=O)[C@@H](C(C)C)NC(=O)[C@@H](C(C)C)OC(=O)[C@H](C(C)C)NC(=O)[C@H](C)OC(=O)[C@@H](C(C)C)NC(=O)[C@@H](C(C)C)OC(=O)[C@H](C(C)C)NC(=O)[C@H](C)OC(=O)[C@@H](C(C)C)NC(=O)[C@@H](C(C)C)OC1=O [Valinomycin]	10.96

Counter-ions that a name gives are not always drawn.
